The results in this text go back to patent publication US5527894.

Construct, isoform or probe ends are uncertain for at least one entry.

In the series the target is HIV-1 tat protein (Human immunodeficiency virus 1) (UniProt P04608). Nature of the series: binding assay. The conditions noted are these: CITED natural tat-TAR interaction; purified recombinant protein; protein details: purchased from American Bio-Technologies, Inc.

In the case of CCAGAUCUGAGCCUGGGAGCUCUCUGG [TAR RNA], the binding result is recorded as “binds”.
